Consider one molecule from article PMC10432985, “Different tau fibril types reduce prion level in chronically and de novo infected cells” (The Journal of Biological Chemistry, 2023).

For assay [1], the target named is tau K18 fibrils (human tau amino acids 244-372) (human, UniProt P10636-8 244-372).
The target of assay [2] is tau 244-378 fibrils (human tau amino acids 244-378) (human, UniProt P10636-8 244-378).

B1: recombinant mouse PrP(23-231) (natural protein)
chain: not shown
Broadly, the EC50 is the midpoint of the concentration-response curve. A higher EC50 goes with a less potent agent. B1: the EC50 in assay [1] is 103 nM; in assay [2], 174 nM.
